# According to the supplement of paper PMC9931576:
# Changes are numbered by the printed parent chain. Human monoclonal antibodies against the spike receptor-binding domain (heavy:light variable regions). IC50 against pseudoviruses bearing the spike of naturally observed variants; lower = stronger; >10 µg/ml means not reached at the top dose. No active / inactive call. The stated detection limit is 0.0005 µg/ml; values near or below 0.001 µg/ml lie at the floor of the assay.
# B1: BD56-537 (protein)
# chain 1: EVQLVESGGGLVQPGRSLRLSCAVSEFTFDDYAMHWVRQAPGKGLEWVSGISWNGGIIGYADSVKGRFTISRDNAKNSLYLQMISLRPEDTAWYYCAKAVWFKELSEYSFDYWGQGTLVTVSS
# chain 2: QSALTQPASVSGSPGQSITISCTGTSSDVGGYNYVSWYQQHPGKAPKLMIYDVNKRPSGISNRFSGSKSGNTASLTISGLQAEDETDYYCSSYTSDSTVVFGGGTKLTVL
# B2: BD56-551 (protein)
# chain 1: QVQLVQSGAEVKKPGSSVKVSCKASGGIFSSNGISWVRQAPGQGLEWMGGIIPIFGTVNYAQEFQGRVTITADESTSTAYMELSSLRSEDTAVYYCAREMETSPLYGMDVWGQGTTVTVSS
# chain 2: DIQMTQSPSSLSASVGDRVTITCRASQSIRTYLNWYQQKPGKAPNLLIYAASTLESGVPSRFSGSGSGTDFTLTISSLQPEDFAIYYCQQSYRTVTFGGGTKVEIK
# B3: BD56-540 (protein)
# chain 1: QVQLVESGGGVVQPGRSLRLSCAASGFTFRDYAIHWVRQAPGKGLEWVAVISYDGSYKDYADSVKGRFTISRDNSKNTLYLQMNTLRDEDTSVYYCAREGHATVTTLFDYWGQGTLVTVSS
# chain 2: DIQMTQSPSSLSASVGDRVTITCRASQSISSYLNWYQQKPGKAPKLLIYAASSLESGVPSRFSGSGSGTDFTLTIRSLQPEDFATYYCQQSYSNPSITFGQGTRLEIK
# B4: BD56-559 (protein)
# chain 1: EVQLVESGGGWVQPGGSLRLSCAASGFTFSNYDMHWVRQTTGKGLDWVSTIGTAGDTYYPDSVKGRFTISRENAKNSLYLQMNSLRAGDTAVYYCARVGYSGSGSQEFRYWYLDLWGRGTLVTVSS
# chain 2: B3 chain 2 with Q3E, S31T, L46I, E55Q, R76S, S93T, N94T, S96L, I97Y
# B5: BD56-555 (protein)
# chain 1: QVQLVESGGDVVQPGRSLRLSCAASGFTFSTSVMHWVRQAPGKGLEWVAVISDDGSIKYYVDSVKGRFTISRDNSKNTLFLQMNSLTPEDTAVYYCAKDVEAVVSATDVLEHWGQGTLVTVSS
# chain 2: DIQMTQSPSSLSASVGDRVTITCRASQSIINYLNWYQHKPGKAPKLLIYAASTLQSGVPSRFSGSGSGTDFTLTIRSLQPEDFATYYCQQSYSTPPLTFGGGTKVEIK
# B6: BD56-552 (protein)
# chain 1: QVQLVESGGGVVQPGRSLRLSCAASGFTFSSYGMHWVRQAPGKGLEWVAGIWHDGSNKYHADSVKGRFTISRDNSKDTLYLQMNSLRAEDTAVYYCARDHLIAPVHGMDVWGQGTTVTVSS
# chain 2: DIQMTQSPSSLSAFVGDRVTITCRASQSISRYLNWYQQKPGKAPKLLIYAASSLESGVPSRFSGGGSGTDFTLTINSLQPEDFAMYYCQQRYTTPPTFGQGTKVEIK
# B7: BD56-539 (protein)
# chain 1: QVQLVQSGAEVKKTGSSVKVSCRASGGTFSSHPISWVRQAPGQGLEWVGRIIPIVGIADYAQKLQGRVTLTADKSTSAAYMELSSLRSEDTAVYYCARDQGYSGSGSSYFFDPWGQGTLVTVSS
# chain 2: QSVLTQPPSVSGAPGQRVTISCTGGNSNIGAGYDVHWYQQLPGTAPKLLIYVNSNRPSGVPDRFSGSKSGTSASLAITGLQAEDEADYYCQSYDSSLSASVFGGGTKLTVL
# B8: BD56-546 (protein)
# chain 1: QVQLVQSGAEVKKPGSSVKVSCKASGGTFSSYTISWVRQAPGQGLEWMGRIITMLGIANYAEKFQGRVTITADKSTSTAYMELSSLRSEDTAVYYCARIGQQLLSDWYFDLWGRGTLVTVSS
# chain 2: B7 chain 2 with V3A, G25S, D34A, V52G, A99E, S100E, G104T, L108V
# B9: BD56-545 (protein)
# chain 1: QVQLVQSGAEVKKPGASVKVSCKVSGYTLSELSMHWVRQAPGKGLEWMGGFDPEDGETIYAQKFQGRVTMTEDTSTDTAYMELSSLRSEDTALYYCATDFAGAGEPPTVAFVFDYWGQGTLVTVSS
# chain 2: EIVLTQSPGTLSLSPGERATLSCRASQSVNSRCLAWYQQKPGQAPRLLIYGASNRATGIPDRFSGSGSGTEFTLTISRLEPEDFAVYYCQQYGSSSYTFGQGTKLEIK
# B10: BD56-535 (protein)
# chain 1: QITLKESGPTLVKPTQTLTLTCTFSGFSLSSSGEGVAWIRQPPGKALEWLALIYWDNDKRYSPSLKSRLTITKDTSKNQVVFRMTNMDPVDTATYYCAQTPGIDVMFDSWGQGTLVTVSS
# chain 2: QSALTQPASVSGSPGQSVTISCTGTSSDLGAFNYVSWYQQHPGKAPRLMIYDVSNRPSGVSNRFSGSKSGNTASLTISGLQAQDEADYFCSSYTTSSVVFGGGTKLTVL
# B11: BD56-556 (protein)
# chain 1: QMHLVQSGPEVKKPGTSVRVSCKASTFTFATSAVQWVRQARGQRLEWIGWIVVGSGDTNYAQKFQERVTITRDMSKSAAYLELNSLRSEDTALYYCAAPHCNRTTCYDGFDMWGQGTMVTVSS
# chain 2: EIVLTQSPGILSLSPGERATLSCRASQSVRSSYLGWYQQKAGQAPRLLIYGASSRATGVPDRFGGSGSGTDFTLTISRLEPEDFAVYYCQQYGSSPWTFGQGTKVEIK
# B12: BD56-549 (protein)
# chain 1: QVLLVESGGGVVQPGRSLRLSCAASGFTFSNYGMHWVRQAPGKGLEWVAVMSSDGSYRSHADSVKGRFTISRDNSKNTLYLQMNSLRAEDTAVYYCARDATAGTSMVTLFDYWGQGTLVTVSS
# chain 2: DIQMTQSPSSLSASVGDRVTITCRASQSISNYLSWYQQKPGKAPKLLIYTTSSLQSGVPSRFSGGGSGTEFTLTNSNLQPEDFATYYCQQSYSTPPWTFGQGTKLEIK
# Columns and labels:
# Assay in all cases: pseudovirus neutralization IC50; higher = weaker neutralization
# [1] = molecular target: SARS-CoV-2 Omicron BA.1 spike pseudovirus
# Protocol: (§1)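 Single-round VSV luciferase pseudovirus mixed with antibody dilutions for 1 h and put on Huh-7 cells for about a day; IC50 from the dose curve.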
# [2] = molecular target: SARS-CoV-2 Omicron BA.2 spike pseudovirus
# Protocol: as §1
# [3] = molecular target: SARS-CoV-2 Omicron BA.2.75 spike pseudovirus
# Protocol: as §1
# [4] = molecular target: SARS-CoV-2 Omicron BA.5 spike pseudovirus
# Protocol: as §1
# [5] = molecular target: SARS-CoV-2 Omicron BQ.1.1 spike pseudovirus
# Protocol: as §1
# [6] = molecular target: SARS-CoV-2 Omicron XBB spike pseudovirus
# Protocol: as §1
# [7] = molecular target: SARS-CoV-2 early D614G spike pseudovirus
# Protocol: as §1
Binder,pseudovirus neutralization IC50 [1],pseudovirus neutralization IC50 [2],pseudovirus neutralization IC50 [3],pseudovirus neutralization IC50 [4],pseudovirus neutralization IC50 [5],pseudovirus neutralization IC50 [6],pseudovirus neutralization IC50 [7]
B1,0.036 µg/mL,0.0164 µg/mL,0.0284 µg/mL,8.24 µg/mL,> 10 µg/mL,> 10 µg/mL,0.0247 µg/mL
B2,0.399 µg/mL,0.444 µg/mL,0.472 µg/mL,6.88 µg/mL,> 10 µg/mL,7.99 µg/mL,0.185 µg/mL
B3,2.38 µg/mL,4.82 µg/mL,4.67 µg/mL,3.2 µg/mL,3.44 µg/mL,3.56 µg/mL,0.306 µg/mL
B4,> 10 µg/mL,> 10 µg/mL,> 10 µg/mL,> 10 µg/mL,> 10 µg/mL,> 10 µg/mL,> 10 µg/mL
B5,> 10 µg/mL,> 10 µg/mL,> 10 µg/mL,> 10 µg/mL,> 10 µg/mL,> 10 µg/mL,4.46 µg/mL
B6,0.855 µg/mL,0.83 µg/mL,1.05 µg/mL,> 10 µg/mL,> 10 µg/mL,5.2 µg/mL,1.39 µg/mL
B7,0.455 µg/mL,0.466 µg/mL,0.796 µg/mL,0.59 µg/mL,4.65 µg/mL,5.55 µg/mL,0.277 µg/mL
B8,0.49 µg/mL,0.443 µg/mL,0.37 µg/mL,> 10 µg/mL,> 10 µg/mL,> 10 µg/mL,0.565 µg/mL
B9,> 10 µg/mL,> 10 µg/mL,> 10 µg/mL,> 10 µg/mL,> 10 µg/mL,> 10 µg/mL,> 10 µg/mL
B10,0.0122 µg/mL,0.00114 µg/mL,0.0104 µg/mL,0.00181 µg/mL,> 10 µg/mL,> 10 µg/mL,0.00118 µg/mL
B11,0.001 µg/mL,0.000896 µg/mL,0.0053 µg/mL,0.16 µg/mL,3.41 µg/mL,> 10 µg/mL,0.00546 µg/mL
B12,> 10 µg/mL,> 10 µg/mL,> 10 µg/mL,> 10 µg/mL,> 10 µg/mL,> 10 µg/mL,> 10 µg/mL
